Results of unrelated studies side by side (data: NIAID ChemDB).

Common to all: host cell toxicity; measure: CC50

CCn is the concentration with n% toxicity to the cells. An empty or dashed field is not shown. Lines come from different laboratories, so protocols vary.

CC[C@@H](CCC[C@@H](CO)N(CCC(C)C)S(=O)(=O)c1ccc(N)cc1)NC(=O)[C@@H](NC(=O)OCc1ccncc1)C(c1ccccc1)c1ccccc1 ; read by: microscopy ; cells: T lymphoid cells ; result: >10 µM
CC(O)Cc1ccc2cccc(O)c2n1 ; read by: MTT ; cells: CEM-4fx ; result: 4.5 µM
CC(C)(CO)C(=O)Nc1ccc(NS(=O)(=O)c2cccc3ccccc23)cc1 ; cells: Human embryonic lung fibroblasts ; result: 125 µM
COc1ccc2nc3cc(Cl)ccc3c(NCCNC(=O)[C@@H](N)Cc3cnc[nH]3)c2c1 ; read by: MTS ; cells: KB cells ; result: 3.94 µM
CCN([C@H](CO)CCC[C@H](C)NC(=O)[C@H](Cc1ccccc1Cl)NC(=O)OC)S(=O)(=O)c1ccc(CO)cc1 ; read by: microscopy ; cells: T lymphoid cells ; result: >10 µM
COC(=O)/C=C/c1ccc2cc(C)ccc2n1 ; read by: MTT ; cells: CEM-4fx ; result: 30.6 µM
COC(=O)C1=C(CN2CC(F)(F)[C@@H]3[C@H]2CON3CC[C@](C)(O)C(=O)O)NC(c2nccs2)=N[C@H]1c1ccc(F)c(F)c1C ; read by: WST / absorbance ; cells: HepG2.2.15 ; result: >100 µM
COC(=O)N[C@H](C(=O)NC(C)(C)CCC[C@@H](CO)N(C(C)C)S(=O)(=O)c1ccc(N)cc1)C(c1ccccc1)c1ccccc1 ; read by: microscopy ; cells: T lymphoid cells ; result: >10 µM
NCCNc1c2ccccc2nc2ccccc12 ; read by: MTS ; cells: KB cells ; result: 1.78 µM
CC(C)C[C@@H]1NC(=O)[C@H](Cc2ccc(O)cc2)NC(=O)[C@@H](CCCCN)NC(=O)[C@H](CC(N)=O)NC(=O)[C@H](C(C)C)NC(=O)[C@@H](CC(C)C)NC1=O ; read by: MTT ; cells: Colorectal carcinoma ; result: >30 µM
Cc1cc(C)n(-c2nc3c(c(=O)n2-c2ccc4c(c2)ncn4C)C[C@@H](C)N(C(=O)c2ccc(Br)c(C(F)(F)F)c2)C3)n1 ; read by: luminescence ; cells: HepG2.117 ; result: >0.5 µM
CC(C)c1ccc2ccccc2n1 ; read by: MTT ; cells: CEM-4fx ; result: 5.9 µM
CCN([C@H](CO)CCC[C@@H](NC(=O)[C@@H](NC(=O)OC)C(c1ccccc1)c1ccccc1)C1CC1)S(=O)(=O)c1ccc(CO)cc1 ; read by: microscopy ; cells: T lymphoid cells ; result: >10 µM
O=c1[nH]c(=O)n([C@@H]2O[C@H](CO)[C@@H](O)[C@@H]2O)cc1/C=C/Br ; read by: cell count ; cells: BCBL-1 ; result: 340 µM
COc1ccc2[nH]c(=O)c(CN(Cc3cccnc3)S(=O)(=O)c3cccc4nsnc34)cc2c1 ; read by: MTT ; cells: U1 ; result: >10 µM
CN(C)c1cccc2c(S(=O)(=O)Nc3ccc(NC(=O)C(C)(C)C=O)cc3)cccc12 ; cells: Human embryonic lung fibroblasts ; result: 79 µM
O=C(C(=O)N1CCN(C(=O)c2ccccc2)CC1)c1c[nH]c2c(-c3cn[nH]n3)ncc(F)c12 ; read by: trypan blue ; cells: HeLa ; result: >100 µM
CCOC(=O)C1=C(CN2CC(F)(F)[C@@H]3[C@H]2CON3CC(CC(C)(C)C(=O)O)OC)NC(c2nccs2)=N[C@H]1c1cccc(F)c1C ; read by: WST / absorbance ; cells: HepG2.2.15 ; result: 50 µM
COc1cnc(-n2cncn2)c2[nH]cc(C(=O)C(=O)N3CCN(C(=O)c4ccccc4)[C@H](C)C3)c12 ; read by: trypan blue ; cells: HeLa ; result: >100 µM
Cc1ccc(-n2ncc3c(Nc4ccc(C(F)(F)F)cc4)ncnc32)c(C)c1 ; cells: HUH 9B ; result: 22 µM
C[C@@H]1CN(C(=O)C(=O)c2c[nH]c3c(-c4ncco4)ccnc23)CCN1C(=O)c1ccccc1 ; read by: trypan blue ; cells: HeLa ; result: >100 µM
O=C(NCCc1cccc(-n2ccnc2)n1)NCc1ccc(F)cc1 ; cells: PBMC ; result: 22 µM
Cc1ccc(-n2ncc3c(Nc4ccc(Cl)c(Cl)c4)ncnc32)c(C)c1 ; cells: HUH 9B ; result: 17 µM
Cc1cc(C)n(-c2nc3c(c(=O)n2-c2ccc(NC[C@H](O)CO)nc2)C[C@@H](C)N(C(=O)c2ccc(Br)c(C(F)(F)F)c2)C3)n1 ; read by: luminescence ; cells: HepG2.117 ; result: >0.5 µM
COC(=O)C1=C(CN2CC(F)(F)[C@@H]3[C@H]2CON3C[C@](C)(O)C(C)(C)C(=O)O)NC(c2nccs2)=N[C@H]1c1ccc(F)c(F)c1C ; read by: WST / absorbance ; cells: HepG2.2.15 ; result: >6.25 µM
CCOC(=O)c1ccc(Nc2ncnc3c2cnn3-c2ccc(C)cc2C)cc1 ; cells: HUH 9B ; result: 49 µM
Cc1cc(C=O)cc(C)c1Oc1cc(Nc2ccc(C#N)cc2)nc2ccccc12 ; read by: MTT ; cells: MDA-MB-231 ; result: 15.9 µM
Cc1ccc(-n2ncc3c(Nc4ccc(C#N)c(Cl)c4)ncnc32)c(C)c1 ; cells: HUH 9B ; result: 18 µM
COC(=O)C1=C2Nc3ccccc3[C@@]23CCN2C[C@]4(C[C@@H]5C[C@]67CCO[C@H]6CCC6NC[C@@]8(c9cccc(OC)c9N(C4)[C@@H]58)[C@@H]67)[C@@H]4OCCC4(C1)[C@H]23 ; read by: absorbance ; cells: Jurkat cells ; result: >56.94 µM
Cc1cc(C)n(-c2nc3c(c(=O)n2-c2ccc(OC[C@H](O)CO)cc2)C[C@@H](C)N(C(=O)c2ccc(Br)c(C(F)(F)F)c2)C3)n1 ; read by: luminescence ; cells: HepG2.117 ; result: >0.5 µM
c1ccc2c(NCCCCN3CCNCC3)c3ccccc3nc2c1 ; read by: MTS ; cells: KB cells ; result: 0.695 µM
Cc1ccc(-n2ncc3c(NC(=O)Nc4ccc(C(F)(F)F)cc4)ncnc32)c(C)c1 ; cells: HUH 9B ; result: >50 µM
N#CC(N)=NCCCC[NH+]=C(N)NC(N)=NCCCCN=C(N)NC(N)=[NH+]CCCCN.[Cl-].[Cl-] ; read by: MTT ; cells: P4-CCR5 ; result: 550 µg/mL
CC(C)C[C@@H]1NC(=O)[C@H](Cc2c[nH]c3ccccc23)NC(=O)[C@H](CCCCN)NC(=O)[C@H](CC(N)=O)NC(=O)[C@H](C(C)C)NC(=O)[C@@H](CC(C)C)NC1=O ; read by: MTT ; cells: Colorectal carcinoma ; result: >30 µM
COc1ccc(S(=O)(=O)N(CC(C)C)C[C@@H](O)[C@H](Cc2ccccc2)NC(=O)[C@]23CCC(C)(C)C[C@H]2C2=CC[C@@H]4[C@@]5(C)CC[C@@H](O)C(C)(C)[C@@H]5CC[C@@]4(C)[C@]2(C)CC3)cc1 ; read by: absorbance ; cells: HUVEC ; result: >100 µM
CCCCNC1=CC(C(=O)O)=CC(S(N)(=O)=O)C1Oc1ccccc1 ; cells: RH9 ; result: 3.7 µM
CCOC(=O)C1=C(CN2CC(F)(F)[C@@H]3[C@H]2CON3C[C@@H](F)C(C)(C)C(=O)O)NC(c2nccs2)=N[C@H]1c1cccc(F)c1Cl ; read by: WST / absorbance ; cells: HepG2.2.15 ; result: 76.7 µM
CC(=O)N1c2ccccc2NC2=C(C(=O)CC(C)(C)C2)C1c1ccc(Cl)cc1Cl ; cells: Huh7-CMV-Luc ; result: >32 µM
CCCCCCCCCCCC/C=C/c1ccc2ccccc2n1 ; read by: MTT ; cells: CEM-4fx ; result: >100 µM
O=C(C(=O)N1CCN(C(=O)c2ccccc2)CC1)c1c[nH]c2c(N3CCCC3)ncc(F)c12 ; read by: trypan blue ; cells: HeLa ; result: >100 µM
O=c1[nH]c(=O)n([C@H]2C[C@H](O)[C@@H](CO)O2)cc1I ; read by: cell count ; cells: P3HR-1 ; result: ≤14 µM
C=Cc1ccc2ccccc2n1 ; read by: MTT ; cells: CEM-4fx ; result: 9.4 µM
CN(C)c1cccc2c(S(=O)(=O)Nc3ccc(NC(=O)C(C)(C)CCl)cc3)cccc12 ; cells: Human embryonic lung fibroblasts ; result: 31.3 µM
Cc1ccn(-c2ccnc3c(C(=O)C(=O)N4CCN(C(=O)c5ccccc5)[C@H](C)C4)c[nH]c23)n1 ; read by: trypan blue ; cells: HeLa ; result: >100 µM
CCc1cn([C@H]2C[C@H](O)[C@@H](CO)O2)c(=O)[nH]c1=O ; read by: cell count ; cells: NIH 3T3 ; result: 17 µM
O=C(NCCc1ccc2c(n1)NCCCC2)Nc1cccc(F)c1 ; cells: PBMC ; result: 50 µM
O=C(NCCNc1c2ccccc2nc2ccccc12)[C@@H]1CCCN1 ; read by: MTS ; cells: KB cells ; result: 2.32 µM
CC(C)(CF)C(=O)Nc1ccc(NS(=O)(=O)c2cccc3ccccc23)cc1 ; cells: Mouse fibroblast cell lines ; result: 28.7 µM
Cc1ccc(-n2ncc3c(NC(=O)Nc4cccc(C(F)(F)F)c4)ncnc32)c(C)c1 ; cells: HUH 9B ; result: 22 µM
O=C(NCCc1ccc2c(n1)NCCC2)Nc1cccc(Cl)c1 ; cells: PBMC ; result: 3.5 µM
Cc1cc(C)n(-c2nc3c(c(=O)n2-c2cc(F)c4ncn(C)c4c2)C[C@@H](C)N(C(=O)c2ccc(Br)c(C(F)(F)F)c2)C3)n1 ; read by: luminescence ; cells: HepG2.117 ; result: >0.5 µM
Cc1ccc(-n2ncc3c(Nc4ccc(S(N)(=O)=O)cc4)ncnc32)c(C)c1 ; cells: HUH 9B ; result: >50 µM
Cc1cc(C)n(-c2nc3c(c(=O)n2-c2ccc(NC4CC(O)C4)nc2)C[C@@H](C)N(C(=O)c2ccc(Br)c(C(F)(F)F)c2)C3)n1 ; read by: luminescence ; cells: HepG2.117 ; result: >0.5 µM
NS(=O)(=O)c1ccc(CCNc2ncnc3c2cnn3-c2cccc(Cl)c2)cc1 ; cells: HUH 9B ; result: 30 µM
COC(=O)N[C@H](C(=O)N[C@@H](C)CCC[C@@H](CO)N(CCCF)S(=O)(=O)c1ccc(N)cc1)C(c1ccccc1)c1ccccc1 ; read by: microscopy ; cells: T lymphoid cells ; result: >10 µM
Nc1nc(=O)n([C@@H]2O[C@H](CO)[C@@H](O)[C@@H]2F)cc1I ; read by: cell count ; cells: NIH 3T3 ; result: 30 µM
FC(F)(F)Oc1ccc(CNC(=S)NCCc2ccc3c(n2)NCCC3)cc1 ; cells: PBMC ; result: 0.52 µM
COc1ccc(S(=O)(=O)N(CC(C)C)C[C@@H](O)[C@H](Cc2ccccc2)NC(=O)[C@]23CC[C@@H](C)[C@H](C)[C@H]2C2=CC[C@@H]4[C@@]5(C)C[C@@H](O)[C@@H](O)[C@@](C)(CO)[C@@H]5CC[C@@]4(C)[C@]2(C)CC3)cc1 ; read by: absorbance ; cells: HUVEC ; result: >100 µM
CC[C@@H]1/C=C(\C)C[C@H](C)C[C@H](OC)[C@H]2O[C@@](O)(C(=O)C(=O)N3CCCC[C@H]3C(=O)O[C@H](/C(C)=C/[C@H]3CC[C@H](O)[C@H](OC)C3)[C@H](C)[C@@H](O)CC1=O)[C@H](C)C[C@@H]2OC ; cells: P815 ; result: 40 µg/mL
CNC(=O)c1ncc(OC)c2c(C(=O)C(=O)N3CCN(C(=O)c4ccccc4)[C@H](C)C3)c[nH]c12 ; read by: trypan blue ; cells: HeLa ; result: >100 µM
CC(C)C[C@@H]1NC(=O)[C@H](Cc2c[nH]c3ccccc23)NC(=O)[C@@H](CCCNC(N)=O)NC(=O)[C@H](CC(N)=O)NC(=O)[C@H](C(C)C)NC(=O)[C@@H](CC(C)C)NC1=O ; read by: MTT ; cells: Lung carcinoma cells ; result: >30 µM
COc1ccc(S(=O)(=O)N(CC(C)C)C[C@@H](O)[C@H](Cc2ccccc2)NC(=O)[C@]23CC[C@@H](C)[C@H](C)[C@H]2C2=CC[C@@H]4[C@@]5(C)CC[C@@H](O)C(C)(C)[C@@H]5CC[C@@]4(C)[C@]2(C)CC3)cc1 ; read by: absorbance ; cells: HUVEC ; result: >100 µM
O=C(NCCc1ccc2c(n1)NCCC2)Nc1cc(F)cc(F)c1 ; cells: PBMC ; result: 14 µM
CC(C)(CCl)C(=O)Nc1ccc(NS(=O)(=O)c2cccc3ccccc23)cc1 ; cells: Mouse fibroblast cell lines ; result: 25 µM
CC(C)CN(C[C@@H](O)[C@H](Cc1ccccc1)NC(=O)[C@]12CC[C@@H](C)[C@H](C)[C@H]1C1=CC[C@@H]3[C@@]4(C)C[C@@H](O)[C@@H](O)[C@@](C)(CO)[C@@H]4CC[C@@]3(C)[C@]1(C)CC2)S(=O)(=O)c1ccc(N)cc1 ; read by: absorbance ; cells: HUVEC ; result: >100 µM
Cc1cc(C)n(-c2nc3c(c(=O)n2-c2ccc(OC[C@@H](O)CO)cc2)C[C@@H](C)N(C(=O)c2ccc(Br)c(C(F)(F)F)c2)C3)n1 ; read by: luminescence ; cells: HepG2.117 ; result: >0.5 µM
CC(C)C[C@@H]1NC(=O)[C@H](Cc2c[nH]c3ccccc23)NC(=O)C(CCCN=C(N)N)NC(=O)[C@H](CC(N)=O)NC(=O)[C@H](C(C)C)NC(=O)[C@@H](CC(C)C)NC1=O ; read by: MTT ; cells: Colorectal carcinoma ; result: >30 µM
COC(=O)N[C@H](C(=O)N[C@H](CCC[C@@H](CO)N(CCC(C)C)S(=O)(=O)c1ccc(CO)cc1)C(F)(F)C(F)(F)F)C(c1ccccc1)c1ccccc1 ; read by: microscopy ; cells: T lymphoid cells ; result: >10 µM

The last 5 rows once more:

SMILES	read by	cells	result
CC(C)(CCl)C(=O)Nc1ccc(NS(=O)(=O)c2cccc3ccccc23)cc1		Mouse fibroblast cell lines	25 µM
CC(C)CN(C[C@@H](O)[C@H](Cc1ccccc1)NC(=O)[C@]12CC[C@@H](C)[C@H](C)[C@H]1C1=CC[C@@H]3[C@@]4(C)C[C@@H](O)[C@@H](O)[C@@](C)(CO)[C@@H]4CC[C@@]3(C)[C@]1(C)CC2)S(=O)(=O)c1ccc(N)cc1	absorbance	HUVEC	>100 µM
Cc1cc(C)n(-c2nc3c(c(=O)n2-c2ccc(OC[C@@H](O)CO)cc2)C[C@@H](C)N(C(=O)c2ccc(Br)c(C(F)(F)F)c2)C3)n1	luminescence	HepG2.117	>0.5 µM
CC(C)C[C@@H]1NC(=O)[C@H](Cc2c[nH]c3ccccc23)NC(=O)C(CCCN=C(N)N)NC(=O)[C@H](CC(N)=O)NC(=O)[C@H](C(C)C)NC(=O)[C@@H](CC(C)C)NC1=O	MTT	Colorectal carcinoma	>30 µM
COC(=O)N[C@H](C(=O)N[C@H](CCC[C@@H](CO)N(CCC(C)C)S(=O)(=O)c1ccc(CO)cc1)C(F)(F)C(F)(F)F)C(c1ccccc1)c1ccccc1	microscopy	T lymphoid cells	>10 µM